Consider one molecule from article PMC5869396 (Toxins, 2018).

The assay concerns the target biotinylated rStx2aB (rStx2aB with human IgA1 hinge and biotin acceptor domain) (Escherichia coli O157:H7 EDL933 …, biotin (in vivo biotinylation on the biotin acceptor domain)). Conditions: both partners purified.

B1: Nb113 (expressed from pMECS, C-terminal HA and His6 tags) (VHH)
VHH: QVQLQESGGGLVQPGGSLRLSCAASGFTFSSYYMSWVRQAPGKGPEWVSGINTGGVGTRYADSVKGRFTISRDNAKNTLYLQMNSLKPEDTALYYCAIGEGGNRNYWGQGTQVTVSS
notes: source: E. coli WK6 (pMECS), periplasmic extract, purified (IMAC, SEC)
For orientation: Kd means the concentration at which binding is half-saturated. What is called koff is the rate constant with which the complex falls apart. Lower therefore signals a long-lived complex. In general, kon refers to the rate constant with which the complex forms. A lower kon goes with slow association. By stoichiometry N is commonly meant a count of units in the complex or per binding partner. Turning to B1, binding was characterised by a dissociation constant (Kd) of 9.6 nM, the koff came to 0.0019 s⁻¹, the kon was determined as 195000 M⁻¹ s⁻¹ and the “stoichiometry N” value was determined as 4.52 per pentameric rStx2aB.
